From patent publication US20070112523A1 (priority 2003, published 2007)

System: vaccinia virus expressing the green fluorescent protein (vvGFP)
Experiment: vvGFP anti-viral assay (fluorescence reduction / CPE inhibition in BSC40 cells)
Format: cell-based
Details: TC50 in BSC40 cells / IC50 against vvGFP

For COc1c(CCNC(=O)c2cc3ccccc3cc2O)cccc1-c1ccc([N+](=O)[O-])cc1 [TTP-A, 3-hydroxy-naphthalene-2-carboxylic acid [2-(2-methoxy-4′-nitro-biphenyl-3-yl)-ethyl]-amide], which “TI (therapeutic index, TC50 divided by IC50)” value is on record?
The value was “about 75”.

With COC(=O)C(Cc1ccc(-c2ccc(F)c(Cl)c2)cc1)NC(=O)c1cc(-c2ccc(C(F)(F)F)cc2)ccc1O (centres unmarked) [TTP-B, 3-(3′-chloro-4′-fluoro-biphenyl-4-yl)-2-[(4-hydroxy-4′-trifluoromethyl-biphenyl-3-carbonyl)-amino]-propionic acid methyl ester] as the compound, how does the “TI (therapeutic index, TC50 divided by IC50)” value read?
The value was “about 130”.
